Test results published in US6441132B1, “Contryphan peptides” (dated 2002).

System: mice (9 to 21 days old)
Assay: Bioassay by intracranial injection in mice
Settings: highest doses (20 nmoles/g)

With NC(=O)[C@@H]1CSSC[C@H](N)C(=O)N2C[C@H](O)C[C@H]2C(=O)N[C@H](Cc2c[nH]c3ccccc23)C(=O)N[C@@H](CCC(=O)O)C(=O)N2CCC[C@H]2C(=O)N[C@@H](Cc2c[nH]c3ccccc23)C(=O)N1 the “Lethality on i.c. injection” value was “did not cause any lethality”.
